Experimental data: PubChem BioAssay AID624099 (ICCB-Longwood, 2012)
Here is one part, drawn at random, of about 21,000 deposited reagents. In the full data, 497 (2.4%) got an active call. 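Higher z means weaker E2 silencing; only reporter increases were scored, and knock-downs that hurt cell survival may mask genuine repressor factors.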

Test: 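Knock-downs relieving repression by E2 of an HPV18 LCR luciferase reporter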 (primary screen)
System: human C33A cervical carcinoma cells (HPV-negative) stably expressing BPV1 E2 and an HPV18 LCR luciferase reporter
Knock-down reagent: siRNA pool against human genes, 40 nM
Duration: 72 h
Detection: 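HPV18 LCR reporter light per well, converted to plate-wise z-scores that exclude control wells, and averaged over triplicate plates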
Direction: mean z-score and z-score: higher = stronger reporter signal, weaker E2 silencing
Active means: 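Mean z ≥ 2 together with z ≥ 2 in two or more of the three replicates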

FAM90A6P gave mean z-score 0.69; z-score, replicate A = 0.8; z-score, replicate B = 0.53; z-score, replicate C = 0.74; inactive. With knock-down of COL3A1, the record shows mean z-score 0.29; z-score, replicate A = 0.15; z-score, replicate B = 0.34; z-score, replicate C = 0.39; inactive. With knock-down of CMC1, the record shows mean z-score -1.04; z-score, replicate A = -0.94; z-score, replicate B = -1.16; z-score, replicate C = -1.03; inactive. Against LOC340246 (retired record), the values are mean z-score 0.47; z-score, replicate A = 0.64; z-score, replicate B = 0.36; z-score, replicate C = 0.4; inactive. After knock-down of PCGF1, the record shows mean z-score -1.06; z-score, replicate A = -1.01; z-score, replicate B = -1.08; z-score, replicate C = -1.09; inactive. Against SETD2, the entry reads mean z-score 0.26; z-score, replicate A = 0.1; z-score, replicate B = 0.3; z-score, replicate C = 0.37; inactive.

For MRPL18, the values are mean z-score -0.44; z-score, replicate A = -0.23; z-score, replicate B = -0.62; z-score, replicate C = -0.48; inactive. Silencing of MARVELD1 gave: mean z-score 0.37; z-score, replicate A = 0.34; z-score, replicate B = 0.45; z-score, replicate C = 0.33; inactive. For FUS, the entry reads mean z-score 1.46; z-score, replicate A = 1.6; z-score, replicate B = 1.39; z-score, replicate C = 1.39; inactive.

Ordered by “z-score, replicate C” (descending): 2 of the entries above.
MARVELD1 → mean z-score: 0.37; z-score, replicate A: 0.34; z-score, replicate B: 0.45; z-score, replicate C: 0.33; activity call: inactive
MRPL18 → mean z-score: -0.44; z-score, replicate A: -0.23; z-score, replicate B: -0.62; z-score, replicate C: -0.48; activity call: inactive

Additional entries follow:
With knock-down of MTMR11, the screen gave mean z-score -0.37; z-score, replicate A = 0.27; z-score, replicate B = -0.41; z-score, replicate C = -0.98; inactive. TOR1B gave mean z-score -0.72; z-score, replicate A = -0.3; z-score, replicate B = -1; z-score, replicate C = -0.85; inactive. After knock-down of LOC389819 (retired record) the results were mean z-score 0.47; z-score, replicate A = 0.54; z-score, replicate B = 0.48; z-score, replicate C = 0.39; inactive. After knock-down of FOCAD, the screen gave mean z-score -0.47; z-score, replicate A = -0.63; z-score, replicate B = -0.27; z-score, replicate C = -0.5; inactive. With knock-down of PDE11A, the screen gave mean z-score -0.58; z-score, replicate A = -0.61; z-score, replicate B = -0.47; z-score, replicate C = -0.66; inactive. Against MORC1, the entry reads mean z-score 2.47; z-score, replicate A = 2.21; z-score, replicate B = 2.44; z-score, replicate C = 2.76; active.

Against UBR5, the values are mean z-score 0.65; z-score, replicate A = 0.82; z-score, replicate B = 0.55; z-score, replicate C = 0.57; inactive. After knock-down of UBL4B the results were mean z-score -0.1; z-score, replicate A = -0.11; z-score, replicate B = 0.18; z-score, replicate C = -0.38; inactive. Silencing of RPL7P23 came out at: mean z-score -5.36; z-score, replicate A = -5.53; z-score, replicate B = -5.46; z-score, replicate C = -5.09; inactive. Knock-down of XRCC4 resulted in: mean z-score 0.43; z-score, replicate A = 0; z-score, replicate B = 0.54; z-score, replicate C = 0.74; inactive. Against RTF2 the deposit lists mean z-score -0.18; z-score, replicate A = -0.27; z-score, replicate B = -0.28; z-score, replicate C = 0.02; inactive. Knock-down of TMEM97 came out at: mean z-score 0.81; z-score, replicate A = 0.82; z-score, replicate B = 0.88; z-score, replicate C = 0.72; inactive.
